# Sequence variants of PSTVd loop 15 after infection

Data from the supplement of Wu et al. 2024, doi:10.1371/journal.ppat.1012142.

The pool varies loop 15 of the PSTVd intermediate strain in the pattern GGAAACCGNNNNNNC; wild type is GGAAACCGCUACUAC (upper and lower strand joined, each 5' to 3', the first 7 letters being the upper strand, closing pairs included).

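A pool of all variants was put on leaves of three Nicotiana benthamiana plants. Progeny were sequenced from the inoculated region (day 5), the margin of the inoculated leaf (day 10) and systemic leaves (day 12).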

Values are reads per thousand in the sample; higher means more abundant, 0 means not found.
Each site shows the three plants.
"Pool" is the share in the plasmid pool used as inoculum, on the same scale.
The inoculated region was read from the minus strand, the other sites from the plus strand.
Sequences that differ at fixed positions probably stem from PCR or sequencing errors, and defective variants can be carried along by functional ones.
Wild type was 33.9 per thousand in the pool and the most common sequence in every sample (inoculated region 202, 200, 159; leaf margin 724, 746, 710; systemic leaves 856, 883, 880).
With 43,870-66,106 reads a sample, very low values are single reads.

| sequence | pool | inoculated region | leaf margin | systemic leaves |
|---|---|---|---|---|
| GGAAACCGCGGGGCC | 0.320 | 0.115 / 0.145 / 0.0952 | 0.0323 / 0 / 0.0200 | 0 / 0 / 0 |
| GGAAACCGCGGGGGC | 0.176 | 0.0983 / 0.0803 / 0.114 | 0 / 0 / 0 | 0 / 0 / 0 |
| GGAAACCGCGGGGUC | 0.272 | 0.180 / 0.0482 / 0.152 | 0 / 0 / 0 | 0 / 0 / 0 |
| GGAAACCGCGGGUAC | 0.256 | 0.213 / 0.273 / 0.381 | 0.129 / 0.0223 / 0.180 | 0.0322 / 0.0756 / 0.137 |
| GGAAACCGCGGGUCC | 0.208 | 0.147 / 0.0482 / 0.133 | 0.0162 / 0.0223 / 0 | 0 / 0 / 0 |
| GGAAACCGCGGGUGC | 0.112 | 0.311 / 0.273 / 0.495 | 0.113 / 0.0668 / 0.140 | 0.0322 / 0 / 0 |
| GGAAACCGCGGGUUC | 0.224 | 0.115 / 0.257 / 0.324 | 0.0647 / 0.0891 / 0.220 | 0.0161 / 0.0303 / 0.0684 |
| GGAAACCGCGGUAAC | 0.192 | 0.0655 / 0.0482 / 0.133 | 0.0162 / 0 / 0.0200 | 0.0322 / 0 / 0 |
| GGAAACCGCGGUACC | 0.192 | 0.0819 / 0.0803 / 0.114 | 0 / 0 / 0 | 0 / 0 / 0 |
| GGAAACCGCGGUAGC | 0.144 | 0.0819 / 0.112 / 0.171 | 0 / 0 / 0 | 0 / 0 / 0 |
| GGAAACCGCGGUAUC | 0.192 | 0.229 / 0.145 / 0.152 | 0 / 0 / 0.0401 | 0.0161 / 0 / 0 |
| GGAAACCGCGGUCAC | 0.160 | 0.115 / 0.145 / 0.0952 | 0 / 0 / 0.0200 | 0.0161 / 0 / 0 |
| GGAAACCGCGGUCCC | 0.160 | 0.0983 / 0.112 / 0.0762 | 0 / 0 / 0 | 0 / 0 / 0 |
| GGAAACCGCGGUCGC | 0.256 | 0.0328 / 0.0321 / 0.0762 | 0 / 0 / 0 | 0 / 0 / 0 |
| GGAAACCGCGGUCUC | 0.224 | 0.508 / 0.594 / 0.476 | 0 / 0 / 0.0401 | 0 / 0.0151 / 0 |
| GGAAACCGCGGUGAC | 0.240 | 0.0819 / 0.129 / 0.0952 | 0 / 0 / 0.0200 | 0 / 0 / 0 |
| GGAAACCGCGGUGCC | 0.144 | 0.0491 / 0.0964 / 0.0952 | 0 / 0 / 0 | 0 / 0 / 0 |
| GGAAACCGCGGUGGC | 0.208 | 0.197 / 0.0964 / 0.133 | 0 / 0.0445 / 0.0200 | 0 / 0 / 0 |
| GGAAACCGCGGUGUC | 0.128 | 0.0655 / 0.112 / 0.0571 | 0.0162 / 0 / 0 | 0 / 0 / 0 |
| GGAAACCGCGGUUAC | 0.144 | 0.311 / 0.289 / 0.419 | 0.146 / 0.0668 / 0.180 | 0.0322 / 0.0303 / 0.0228 |
| GGAAACCGCGGUUCC | 0.160 | 0.147 / 0.0803 / 0.0762 | 0 / 0 / 0 | 0 / 0 / 0 |
| GGAAACCGCGGUUGC | 0.192 | 0.197 / 0.0643 / 0.152 | 0.0162 / 0.0445 / 0 | 0.0161 / 0 / 0 |
| GGAAACCGCGGUUUC | 0.176 | 0.0491 / 0.0321 / 0.0952 | 0.0162 / 0 / 0.0200 | 0 / 0 / 0 |
| GGAAACCGCGUAAAC | 0.240 | 0.115 / 0.0964 / 0.133 | 0 / 0.0223 / 0.0401 | 0.0161 / 0 / 0 |
| GGAAACCGCGUAACC | 0.192 | 0.0655 / 0.129 / 0.0762 | 0 / 0 / 0.0200 | 0 / 0 / 0 |
| GGAAACCGCGUAAGC | 0.320 | 0.0819 / 0.0321 / 0.0381 | 0 / 0 / 0 | 0 / 0 / 0 |
| GGAAACCGCGUAAUC | 0.272 | 0.0328 / 0.0482 / 0.152 | 0 / 0 / 0 | 0 / 0 / 0 |
| GGAAACCGCGUACAC | 0.240 | 0.147 / 0.0482 / 0.0952 | 0 / 0 / 0.0200 | 0 / 0 / 0 |
| GGAAACCGCGUACCC | 0.336 | 0.131 / 0.0803 / 0.114 | 0.0323 / 0 / 0.0200 | 0 / 0 / 0 |
| GGAAACCGCGUACGC | 0.144 | 0.197 / 0.112 / 0.114 | 0 / 0 / 0 | 0 / 0 / 0 |
| GGAAACCGCGUACUC | 0.160 | 0.131 / 0.0803 / 0.248 | 0.0162 / 0 / 0.0200 | 0 / 0 / 0 |
| GGAAACCGCGUAGAC | 0.240 | 0.0983 / 0.0643 / 0.0952 | 0 / 0 / 0 | 0 / 0 / 0 |
| GGAAACCGCGUAGCC | 0.240 | 0.115 / 0.112 / 0.0571 | 0 / 0 / 0.0401 | 0 / 0 / 0 |
| GGAAACCGCGUAGGC | 0.240 | 0.0328 / 0.161 / 0.114 | 0 / 0 / 0 | 0 / 0 / 0 |
| GGAAACCGCGUAGUC | 0.208 | 0.278 / 0.273 / 0.190 | 0 / 0 / 0.0401 | 0 / 0 / 0 |
| GGAAACCGCGUAUAC | 0.192 | 0.180 / 0.386 / 0.457 | 0.129 / 0.0223 / 0.260 | 0.0322 / 0 / 0 |
| GGAAACCGCGUAUCC | 0.384 | 0.213 / 0.0964 / 0.0952 | 0 / 0 / 0 | 0 / 0 / 0 |
| GGAAACCGCGUAUGC | 0.208 | 0.0655 / 0.0643 / 0.0762 | 0 / 0 / 0 | 0 / 0 / 0 |
| GGAAACCGCGUAUUC | 0.176 | 0.0983 / 0.145 / 0.0952 | 0.0162 / 0 / 0.0401 | 0 / 0 / 0 |

A selection of 3 entries from above:

sequence	pool	inoculated region	leaf margin	systemic leaves
GGAAACCGCGUAAUC	0.272	0.0328 / 0.0482 / 0.152	0 / 0 / 0	0 / 0 / 0
GGAAACCGCGGGGGC	0.176	0.0983 / 0.0803 / 0.114	0 / 0 / 0	0 / 0 / 0
GGAAACCGCGGGGUC	0.272	0.180 / 0.0482 / 0.152	0 / 0 / 0	0 / 0 / 0